Compound potency records, mixed from different reports. Data source: NIAID ChemDB in PubChem.

Common to all: whole-cell or culture tests; agent: Plasmodium falciparum

Neighbouring rows are from separate reports.

smiles,strain or isolate,cell line,read by,endpoint,result
COc1cc(OC)c(OC)cc1/C=C/C=C/C(=O)c1ccc(Cl)cc1,INDO,-,SYBR Green / fluorescence,EC50,31.5 µM
N#Cc1nc2c(-c3nc4ccccc4s3)c(N)n(CCCn3ccnc3)c2nc1C#N,NF54,Erythrocytes,hypoxanthine uptake / radiometric,EC50,0.59 µM
N=C(N)c1ccc(OCCCCCOc2ccc(C(=N)N)cc2Br)c(Br)c1,W2,-,hypoxanthine uptake,EC50,0.146 µM
CCN(CC)CCCC(C)Nc1ccnc2cc(Cl)ccc12,W2,RBC,flow cytometry,EC50,0.52 µM
CCC[C@H]1O[C@@H]2CC(=O)O[C@@H]2C2=C1C(=O)c1c(O)cccc1C2=O,HB3,-,SYBR Green,EC50,0.6 µM
C[C@H]1[C@@H](OC(=O)CCC(=O)O)O[C@@H]2O[C@@]3(C)CC[C@H]4[C@H](C)CC[C@@H]1[C@@]24OO3,K1,-,SYBR Green,EC50,<0.1 µM
COc1cc2c(cc1/C=C/C(=O)c1ccc(Cl)cc1Cl)C1CC[C@@]3(C)C(CC[C@@H]3OC(C)=O)C1CC2,NF54,-,LDH,EC50,4.31 µM
COC(=O)C1=C(C(=O)OC)C2N(Cc3ccccc3)c3ccccc3[C@@]23C[C@@H](C(=O)OC)N(S(=O)(=O)c2ccc(C(F)(F)F)cc2)C3=N1,HB3 Dd2,-,SYBR Green / fluorescence,EC50,1.3 µM
COc1ccc(C(=O)/C=C/c2cccc3ccccc23)cc1,Dd2,-,SYBR Green / fluorescence,EC50,18.2 µM
Cc1ccc(-n2cc(/C=N/Nc3ccncc3)c(-c3ccccc3)n2)cc1,RKL9,-,-,EC50,0.076 µM
O=C(Nc1cc(C(F)(F)F)ccc1-n1cncn1)C1(c2ccccc2)CC1,TM90C2B,-,-,EC50,0.076 µM
CC(=O)O[C@H]1[C@H](OC(=O)CC(C)C)C(C)(C)CC2C3=CCC4[C@@]5(C)CC[C@H](O[C@@H]6O[C@H](C(=O)O)[C@@H](O)[C@H](O[C@@H]7O[C@H](CO)[C@H](O)[C@H](O[C@@H]8OC[C@H](O)[C@H](O)[C@H]8O)[C@H]7O)[C@H]6O[C@@H]6O[C@H](CO)[C@H](O)[C@H](O)[C@H]6O)C(C)(C)C5CC[C@@]4(C)[C@]3(C)C[C@@H](O)[C@]21CO,GHA,-,-,EC50,>32 µM
CCN1C(=NCc2cccc(Cl)c2)N[C@@H](c2cccc(C(F)(F)F)c2)C(C(=O)OC)=C1C,GB4,-,SYBR Green / fluorescence,EC50,2.8 µM
CC(=O)OC[C@@]12C(CC(C)(C)[C@@H](OC(=O)CC(C)C)[C@@H]1O)C1=CCC3[C@@]4(C)CC[C@H](O[C@@H]5O[C@H](C(=O)O)[C@@H](O)[C@H](O[C@@H]6OC[C@H](O)[C@H](O[C@@H]7OC[C@H](O)[C@H](O)[C@H]7O)[C@H]6O)[C@H]5O[C@@H]5O[C@H](CO)[C@H](O)[C@H](O)[C@H]5O)[C@@](C)(C=O)C4CC[C@@]3(C)[C@]1(C)C[C@H]2O,GHA,-,-,EC50,>64 µM
COC(=O)C1=C(C)N(Cc2cccc(C(F)(F)F)c2)C(=NCc2cccc(C(F)(F)F)c2)NC1c1cccc(Cl)c1,GB4,-,SYBR Green / fluorescence,EC50,0.04 µM
N=C(N)c1ccc(NCCCCCNc2ccc(C(=N)N)cc2N)c(N)c1,W2,-,hypoxanthine uptake,EC50,0.183 µM
COc1ccc(/C=C/C=C/C(=O)c2ccc(Cl)cc2)cc1,3D7,-,SYBR Green / fluorescence,EC50,88 µM
CC(=O)OC[C@@]12C(CC(C)(C)[C@@H](OC(=O)CC(C)C)[C@@H]1O)C1=CCC3[C@@]4(C)CC[C@H](O[C@@H]5O[C@H](C(=O)O)[C@@H](O)[C@H](O[C@@H]6O[C@H](CO)[C@H](O)[C@H](O[C@@H]7OC[C@H](O)[C@H](O)[C@H]7O)[C@H]6O)[C@H]5O[C@@H]5O[C@H](CO)[C@H](O)[C@H](O)[C@H]5O)[C@@](C)(C=O)C4CC[C@@]3(C)[C@]1(C)C[C@H]2O,GHA,-,-,EC50,>64 µM
CC(C)CCC[C@@H]1C[C@@H]2CCC[C@@H]3C[C@H](CCCC(C)C)NC(=N1)N32,W2,-,LDH,EC50,1.96 µM
COc1cc2c(cc1/C=C/C(=O)c1cc(OC)c(OC)c(OC)c1)C1CC[C@@]3(C)C(CC[C@@H]3O)C1CC2,NF54,-,LDH,EC50,2.07 µM
O=C(Nc1cc(C(F)(F)F)ccc1-n1cncn1)C1(c2cccc(C(F)(F)F)c2)CC1,3D7A,-,-,EC50,0.003 µM
CCCCC[C@@H]1C[C@@H]2CCC[C@@H]3C[C@H](CCCCC)NC(=N1)N32,W2,-,LDH,EC50,2.82 µM
N=C(N)c1ccc(OCCCCOc2ccc(C(=N)N)cc2N)c(N)c1,D6,-,hypoxanthine uptake,EC50,0.152 µM
COC(=O)C1=C(C)N(Cc2ccc(C(F)(F)F)cc2)C(=NCc2cccc(C(F)(F)F)c2)NC1c1ccccc1,GB4,-,SYBR Green / fluorescence,EC50,0.04 µM
CC(C)CCC[C@@H]1C[C@@H]2CC[C@@H]3C[C@H](CCCC(C)C)NC(=N1)N32,W2,-,LDH,EC50,2.7 µM
COc1cc(C2=NCCN2)ccc1OCCCCCOc1ccc(C2=NCCN2)cc1OC,D6,-,hypoxanthine uptake,EC50,0.236 µM
CC(=O)O[C@H]1CC2C(C3CC[C@H](C(C)CCCN(CCCNc4ccnc5cc(Cl)ccc45)CCCC(C)[C@H]4CCC5C6C(C[C@H](OC(C)=O)[C@@]54C)[C@@]4(C)CC[C@@H](NC(=O)OC(C)(C)C)C[C@H]4C[C@H]6OC(C)=O)[C@]31C)[C@H](OC(C)=O)C[C@@H]1C[C@H](NC(=O)OC(C)(C)C)CC[C@]21C,W2,-,SYBR Green,EC50,0.369 µM
O=CN(O)CCCP(=O)(O)O,3D7,red blood cell,-,EC50,0.1814 µM
CCOC(=O)C1=C(C(=O)OCC)C2N(Cc3ccccc3C(F)(F)F)c3ccccc3[C@@]23C[C@@H](C(=O)OC)N(S(=O)(=O)c2ccc(C)cc2)C3=N1,HB3 Dd2,-,SYBR Green / fluorescence,EC50,0.6 µM
CCCCCCCCCC1CC2CCCC3CC(C)NC(=N1)N23,D6,-,LDH,EC50,3.44 µM
CC(C)CCn1c(N)c(-c2nc3ccccc3[nH]2)c2nc(C#N)c(C#N)nc21,NF54,Erythrocytes,hypoxanthine uptake / radiometric,EC50,0.25 µM
Cc1ccc(-n2cc(C=O)c(-c3ccccc3)n2)cc1,RKL9,-,-,EC50,0.051 µM
O=C(/C=C/C=C/c1ccc2c(c1)OCO2)c1ccc(Cl)cc1,Dd2,-,SYBR Green / fluorescence,EC50,73 µM
CCCCC[C@@H]1C[C@@H]2CC[C@@H]3C[C@H](CCCCC)NC(=N1)N32,D6,-,LDH,EC50,3.01 µM
CCO/C(=N/NC(=O)NC)C(C)(O)c1ccc2ccccc2c1,3D7,-,hypoxanthine uptake / radiometric,EC50,6.2 µM
COc1cc(OC)c(OC)cc1/C=C/C(=O)c1ccc(Cl)cc1,3D7,-,SYBR Green / fluorescence,EC50,4 µM
Clc1cccc(CC[C@H]2C[C@H]3CCC[C@H]4C[C@@H](CCc5cccc(Cl)c5)NC(=N2)N34)c1,D6,-,LDH,EC50,1.25 µM
CCN(CC)CCCC(C)Nc1ccnc2cc(Cl)ccc12,W2,human red blood cells,LDH / absorbance,EC50,0.12 µM
CCCC[C@@H]1C[C@@H]2CCC[C@@H]3C[C@H](CCCC)NC(=N1)N32,D6,-,LDH,EC50,2.99 µM
CC(C)Nc1nc2cc(-c3ccc(Cl)cc3)sc2c(=O)[nH]1.O=C(O)/C=C/C(=O)O,3D7,-,SYBR Green,EC50,0.168 µM
COc1cc(C(=O)/C=C/c2cc3c(cc2OC)CCC2C3CC[C@@]3(C)C2CC[C@@H]3O)ccc1O,NF54,-,LDH,EC50,97.84 µM
CCO/C(=N/NC(=O)OC)C(C)(O)c1ccc(Cl)c(C)c1,3D7,-,hypoxanthine uptake / radiometric,EC50,5.1 µM
N#Cc1nc2c(-c3nc4ccccc4[nH]3)c(N)n(CC(F)(F)C(F)(F)C(F)(F)F)c2nc1C#N,NF54,Erythrocytes,hypoxanthine uptake / radiometric,EC50,0.36 µM
CCOC(=O)N/N=C(/OCC)C(C)(O)c1ccc(Cl)cc1,3D7,-,hypoxanthine uptake / radiometric,EC50,5 µM
OCC1=C[C@@H]2OCC[C@@H]2[C@@H]1CO,-,-,-,MIC,40.6 µg/mL
CCN(CC)CCCC(C)Nc1ccnc2cc(Cl)ccc12,NF54,-,-,EC50,0.011 µM
CCOC(=O)N/N=C(/OC)C(C)(O)c1ccc2ccccc2c1,3D7,-,hypoxanthine uptake / radiometric,EC50,1.1 µM

4 of the rows above, restated:

smiles	strain or isolate	cell line	read by	endpoint	result
N#Cc1nc2c(-c3nc4ccccc4[nH]3)c(N)n(CC(F)(F)C(F)(F)C(F)(F)F)c2nc1C#N	NF54	Erythrocytes	hypoxanthine uptake / radiometric	EC50	0.36 µM
CC(=O)OC[C@@]12C(CC(C)(C)[C@@H](OC(=O)CC(C)C)[C@@H]1O)C1=CCC3[C@@]4(C)CC[C@H](O[C@@H]5O[C@H](C(=O)O)[C@@H](O)[C@H](O[C@@H]6OC[C@H](O)[C@H](O[C@@H]7OC[C@H](O)[C@H](O)[C@H]7O)[C@H]6O)[C@H]5O[C@@H]5O[C@H](CO)[C@H](O)[C@H](O)[C@H]5O)[C@@](C)(C=O)C4CC[C@@]3(C)[C@]1(C)C[C@H]2O	GHA	-	-	EC50	>64 µM
CC(=O)OC[C@@]12C(CC(C)(C)[C@@H](OC(=O)CC(C)C)[C@@H]1O)C1=CCC3[C@@]4(C)CC[C@H](O[C@@H]5O[C@H](C(=O)O)[C@@H](O)[C@H](O[C@@H]6O[C@H](CO)[C@H](O)[C@H](O[C@@H]7OC[C@H](O)[C@H](O)[C@H]7O)[C@H]6O)[C@H]5O[C@@H]5O[C@H](CO)[C@H](O)[C@H](O)[C@H]5O)[C@@](C)(C=O)C4CC[C@@]3(C)[C@]1(C)C[C@H]2O	GHA	-	-	EC50	>64 µM
C[C@H]1[C@@H](OC(=O)CCC(=O)O)O[C@@H]2O[C@@]3(C)CC[C@H]4[C@H](C)CC[C@@H]1[C@@]24OO3	K1	-	SYBR Green	EC50	<0.1 µM

An empty or dashed field is not shown. ECn is the concentration giving n% inhibition of infection, replication or growth.